# Results: patent US20240270828A1
# Target: SARS-CoV-2 Spike protein D614G on pseudotyped virus (SARS-CoV-2) (UniProt P0DTC2)
# Test: cell-based or functional assay
substance,measurement,value
CV3-25,"Neutralization IC50 (µg/ml), PsV D614G",1.37 µg/mL
